Source: patent US20260382732A1, “HETEROMULTIVALENT POLYMERS AND ANTIVIRAL APPLICATIONS THEREOF” (published 2026)
pKd, pKi: −log10 of the molar value.

Columns and labels:
IAV strains = assay: Hemagglutination inhibition (HAI) assay, all tested IAV strains
Method: (§1) The hemagglutination inhibition (HAI) assay was performed with different compounds using influenza A viruses A/X31 (H3N2), A/Panama/2007/1999 (H3N2), A/California/7/2009 (H1N1pdm) and A/Bayern/63/2009 (H1N1pdm). In the HAI assay is that IAV inhibitors will prevent the attachment of the virus to RBC. Therefore, hemagglutination is inhibited when inhibitors are present. Using different dilution of compounds, lowest inhibitory concentrations of compounds is evaluated. The Ki (HAI) reflects the lowest inhibitor concentration necessary to achieve full inhibition of virus-induced hemagglutination.
(§2) Inhibitors were fourfold serially diluted in PBS. Then, 4 HAU from A/X31 (H3N2), A/Panama/2007/2009 (H3N2), A/California/7/2009 (H1N1) or A/Bayern/63/2009 (H1N1) virus containing approximately 4×10^7 virus particles were added and gently mixed. After 15 min inculabtion at rt, 50 μl of a 1% chicken erythrocyte solution (preclinics GmbH) was added, gently mixed, and incubated for 30 min at rt. The inhibitor constant KiHAI, reflects the lowest inhibitor concentration, which is necessary to achieve full inhibition of virus induced hemagglutination. To check for full hemagglutination inhibition, the microtiter plate was tilted by 60° to cause droplet formation from red blood cell pellet.

A/X31 (H3N2) = assay: Hemagglutination inhibition (HAI) assay, A/X31 (H3N2); conditions: read-out: Ki(HAI) ± SD, lowest inhibitor concentration for full inhibition of virus-induced agglutination
Method: as §1
(§3) Inhibitors were fourfold serially diluted in PBS. Then, 4 HAU from A/X31 (H3N2), A/Panama/2007/2009 (H3N2), A/California/7/2009 (H1N1) or A/Bayern/63/2009 (H1N1) virus containing approximately 4×10^7 virus particles were added and gently mixed. After 15 min inculabtion at rt, 50 μl of a 1% chicken erythrocyte solution (preclinics GmbH) was added, gently mixed, and incubated for 30 min at rt. […]
(§4) Influenza A viruses A/X31 (H3N2) (reassortant with HA and NA segment of influenza strain A/Aichi/2/68 (H3N2) in the background of A/PuertoRico/8/1934 (H1N1)), A/Panama/2007/1999 (H3N2), A/PR/8/34 (H1N1) and A/Bayern/63/2009 pdm (H1N1) were grown in embryonated chicken eggs. […] Titers of virus stocks were determined by plaque titration. […]

[1] = tested on: A/Panama/2007/2009 (H3N2); assay: Hemagglutination inhibition (HAI) assay, A/Panama/2007/2009 (H3N2); conditions: read-out: Ki(HAI) ± SD, lowest inhibitor concentration for full inhibition of virus-induced agglutination
Method: as §1, §3, §4

A/Bayern/63/2009 (H1N1) = assay: Hemagglutination inhibition (HAI) assay, A/Bayern/63/2009 (H1N1); conditions: read-out: Ki(HAI) ± SD, lowest inhibitor concentration for full inhibition of virus-induced agglutination
Method: as §1, §3, §4

[2] = tested on: A/California/7/2009 (H1N1); assay: Hemagglutination inhibition (HAI) assay, A/California/7/2009 (H1N1); conditions: read-out: Ki(HAI) ± SD, lowest inhibitor concentration for full inhibition of virus-induced agglutination
Method: as §1, §2

IAV virus strains = assay: Inhibition of virus propagation, multicyclic infection of MDCK II cells, tested strains together; conditions: MOI 0.01, 24 h
Method: The therapeutic activity against virus propagation was analyzed in a multicyclic infection setup with the A/X31 (H3N2), A/Panama/2007/2009 (H3N2) and A/Bayern/63/2009 (H1N1pdm) subtypes.
Madin-Darby Canine Kidney (MDCK II) cells were washed with PBS and subsequently infected with the indicated virus at multiplicity of infection (MOI) 0.01 for 1 h. Input virus was removed, and unbound virus washed off with PBS. Cells were then incubated with infection medium (MEM supplemented with 0.2% BSA, 2 mM L-glutamine, […] streptomycin and 100 units/mL penicillin and 2.5 mg/mL TPCK-treated trypsin) containing the indicated compound at the indicated concentration. After 24 h, virus titers in the supernatants were determined by plaque assay as described before (M. Matrosovich et al. Virol J 2006, 3, 63.)
IC50 values were calculated by fitting the data from the curves obtained by plotting the different concentrations of each compound (for each compound and each concentration data from three independent experiments were determined in duplicates), using a 4th-order non-linear regression fit in Graphpad Prism.
MDCK II cells were washed with PBS and subsequently infected with the indicated virus at MOI 0.01 for 45 minutes. Input virus was removed, and unbound virus washed off with PBS. […] After 24 h, virus titers in the supernatants were determined by plaque assay as described before.^[3] […]

HA = conditions: read-out: binding affinity Kd of monovalent SA to HA; cited from earlier work

In the case of `CC(=O)N[C@H]1C([C@H](O)[C@H](O)CO)O[C@@](OCC2O[C@@H](O[C@@H]3C(CO)OC(O)C(O)[C@H]3O)C(O)[C@@H](O)[C@H]2O)(C(=O)[O-])C[C@H]1O.[Na+]` (some centres unmarked), the “HA inhibition (hemagglutination inhibition), in words” value (IAV strains) was “No HA inhibition”.
In the case of `CC(=O)N[C@H]1[C@H]([C@H](O)[C@H](O)CO)OC(C(=O)O)=C[C@@H]1N=C(N)N`, the pKi (A/X31 (H3N2)) was < 3.80, the pKi [1] was < 3.80 and the pKi (A/Bayern/63/2009 (H1N1)) was < 3.80. For the same compound, the pKi [2] was < 3.80, the “HA inhibition (hemagglutination inhibition), in words” value (IAV strains) was “No HA inhibition” and the “inhibition of virus propagation, in words” value (IAV virus strains) was “some activity against one or more of the tested strains”.
In the case of sialic acid, the pKd (HA) is given as 2.40 to 2.70.
